# Read-outs that look alike come from different tables or passages of the source.
# Legend:
# [1] = biological target: T1, purified R220A variant of PenA1 (Burkholderia multivorans, UniProt A0A0H3KN52, R233A); details: R220A vs PenA1
# [2] = biological target: T1, purified R220A variant of PenA1; experiment: biochemical
# [3] = biological target: T1, purified R220A variant of PenA1; details: R220A vs PenA1; remark: listed apart in the source
# [4] = biological target: T1, purified R220A variant of PenA1; details: for k2/K fold decrease: R220A vs PenA1; for k2/K: purified R220A, acylation rate (kinact/KI or k2/K), nitrocefin 100 μM reporter
# [5] = system: O=C(Cc1cccs1)N[C@@H]1C(=O)N2C(C(=O)O)=C(/C=C/c3ccc([N+](=O)[O-])cc3[N+](=O)[O-])CS[C@H]12; experiment: cells, lysate or membranes named; details: other: R220A variant; used for correction of Ki-app; pH 7.4
compound,measurement,setting,value
C[C@]1(Cn2ccnn2)[C@H](C(=O)O)N2C(=O)C[C@H]2S1(=O)=O [tazobactam],tn (15 min) fold decrease,[1],5 fold
same,Ki,[2],36 ± 10 µM
O=C(O)C[C@@H]1CC[C@H](NC(=O)Cc2cccs2)B(O)O1 [vaborbactam],Ki-app fold increase,[3],3 fold
same,Ki-app fold increase,[3]; listed as Vaborbactam,2 fold
same,k2/K fold decrease,[4],4 fold
same,k2/K,[4],8.4 ± 2.0 × 10^1 M^−1 s^−1
same,tn (15 min) fold decrease,[1],2 fold
same,Ki,[2],108 ± 10 µM
O=C(NC1CCNCC1)[C@@H]1CC[C@@H]2CN1C(=O)N2OS(=O)(=O)O [relebactam],"tn (15 min) fold change, increased (DBOs, footnote b)",[1]; increased not decreased,5^b fold
same,Ki,[2],110 ± 17 µM
purified R220A variant of PenA1 (Burkholderia multivorans ATCC 17616; R233A),Km,[5],193 µM
O=C(O)[C@H]1/C(=C/CO)O[C@@H]2CC(=O)N21 [clavulanic acid],tn (15 min) fold decrease,[1],2.5 fold
same,Ki,[2],26 ± 3 µM
Cn1cc[n+](C[C@@]2(C)[C@H](C(=O)[O-])N3C(=O)C[C@H]3S2(=O)=O)n1 [enmetazobactam],Ki-app fold increase,[3],22 fold
same,k2/K fold decrease,[4],77 fold
same,k2/K,[4],8.1 ± 1.5 × 10^3 M^−1 s^−1
same,tn (15 min) fold decrease,[1],10 fold

# From publication PMC8324038 (ACS infectious diseases, 2021)
